Patent US20250387478A1

Molecular target: CD79b (B-cell antigen receptor complex-associated protein β-chain) (human) (UniProt P40259)
Experiment: cell-based or functional assay

## ATB 780, CD79b (polatuzumab) [HC-G4S-Ricin × LC]
  IC50, cell viability assay (Cell Titer Glo) on CD79b+ cells: 1.58 nM
